Anti-infective test results gathered from many reports (values: NIAID ChemDB through PubChem).

Common to all: tests in culture; species: HIV-1; endpoint: inhibition

Lines come from different laboratories, so protocols vary. Blank or dashed fields: not listed here. a–b is a range or a potency band. Inhibition is in % at the dose shown (toxicity tests: loss of growth or viability).

SMILES	cell line	conditions	read by	tested at	strain	value
Cc1ccc(-c2ccc3c(c2)C=C(C(=O)Nc2ccc(C[N+](C)(C)C4CCOCC4)cc2)CCC3)cc1	PBMC		p24	1 µM	TB3 CLADE C	100%
O=C(NCCc1ccccc1)Nc1nc2ccc(F)cc2s1	MT-4		cytopathic effect / XTT	1 µg/mL		3–100%
O=C(C(=O)N1CCN(C(=O)c2cccc(F)c2)CC1)c1c[nH]c2ccccc12	MT-2		RT activity	10 µM	BRU	92.5%
COC(=O)C(=O)c1csc(NC(=O)NCCc2ccccc2)n1	MT-4		cytopathic effect / XTT	1 µg/mL		0%
O=C(C(=O)N1CCN(C(=O)c2ccccc2)CC1)c1c[nH]c2cc(C(F)(F)F)ccc12	HeLa + HELA CD4+/CCR5		luciferase	10 µM		38%
[N-]=[N+]=NCCCCCCCCCCCC(=O)O	CEM		cytopathic effect	1 µg/mL		82%
CCc1nnc(NC(=O)NCCc2ccccc2)s1	MT-4		cytopathic effect / XTT	10 µg/mL		7%
CCCCCCCCC(=O)CCCCC(=O)O	CEM		cytopathic effect	10 µg/mL		34%
CCCC1CN(C(=O)C(=O)c2c[nH]c3c(C(=O)OC)cccc23)CCN1C(=O)c1ccccc1	HeLa + HELA CD4+/CCR5		luciferase	10 µM		>98%
CC(C)[C@H](NC(=O)[C@H](CO)NC(=O)[C@@H](N)CS)C(=O)N[C@H](C(=O)N[C@@H](CS)C(=O)NCC(=O)O)[C@@H](C)O	PBMC(PHA STIM.) + PBMC		p24	1.8 µM	p13	95%
Cc1nc(NC(=O)NCCc2ccccc2)sc1C	MT-4		RT activity	1 µg/mL		23%
C[C@H]1[C@H](O)[C@@H](C)/C=C/C=C/C=C/C=C/C=C/C=C/C=C/[C@H](O[C@@H]2O[C@H](C)[C@@H](O)[C@H](N)[C@@H]2O)C[C@@H]2O[C@](O)(C[C@@H](O)C[C@@H](O)CC[C@H](O)[C@@H](O)C[C@@H](O)CC(=O)O[C@H]1C)C[C@H](O)[C@H]2C(=O)O	H9		p24 / antigen	10 µg/mL	IIIB	72%
CCCCCCCCCCCCCCCCOP(=O)(OC[C@H]1OC(O)[C@@H](O)[C@@H](O)[C@@H]1O)OC[C@H]1O[C@@H](n2cc(C)c(=O)[nH]c2=O)C[C@@H]1N=[N+]=[N-]	U-937	11 d	RT activity	0.2 µM	LAV-Bru	0%
COC(=O)c1ccc(F)c2c(C(=O)C(=O)N3CCN(C(=O)c4ccccc4)C[C@H]3C)c[nH]c12	HeLa + HELA CD4+/CCR5		luciferase	10 µM		>98%
Nc1cc(S(=O)(=O)O)c2ccccc2c1N	H9		p24	10 µg/mL		44%
O=C(C(=O)N1CCN(C(=O)c2ccccc2)CC1)c1c[nH]c2cccc(Cl)c12	MT-2		RT activity	10 µM	BRU	>98%
CC(C)[C@H](NC(=O)[C@H](Cc1ccccc1)C[C@H](O)[C@H](Cc1ccccc1)NC(=O)OC(C)(C)C)C(=O)N[C@@H](Cc1ccccc1)C(=O)N1CCOCC1	PBL		RT activity	0.5 µM	AMS316-23	92%
N=C1Sc2ccccc2C2=NCCCN12	PBMC		β-galactosidase	4.67 µM	92UG029	90%
CCCCCCCCCCCCCCCCOP(=O)(OCCO[C@@H]1O[C@H](CO)[C@@H](O)[C@H](O)[C@@H]1O)OC[C@H]1O[C@@H](n2cc(C)c(=O)[nH]c2=O)C[C@@H]1N=[N+]=[N-]	U-937	7 d	RT activity	0.2 µM	LAV-Bru	0%
CC(=O)NCCCCCCCCCCC(=O)O	CEM		cytopathic effect	1 µg/mL		6%
N#Cc1csc(NC(=O)NCCc2ccccc2)n1	MT-4		RT activity	100 µg/mL		98%
[N-]=[N+]=NCCCCCCCCCCC(=O)O	CEM		cytopathic effect	10 µg/mL		35%
N=C1Sc2ccccc2C2=NCCCN12	PBMC		ELISA	0.54 µM	92RW016	90%
C[C@@H]1CN(C(=O)c2ccccc2)CCN1C(=O)C(=O)c1c[nH]c2cc(Cl)c(Cl)cc12	HeLa + HELA CD4+/CCR5		luciferase	10 µM		89%
O=C(NCCc1ccccc1)Nc1cnccn1	MT-4		cytopathic effect / XTT	1 µg/mL		4%
C[C@H]1[C@H](O)[C@@H](C)/C=C/C=C/C=C/C=C/C=C/C=C/C=C/[C@H](O[C@@H]2O[C@H](C)[C@@H](O)[C@H](N)[C@@H]2O)C[C@@H]2O[C@](O)(C[C@@H](O)C[C@@H](O)CC[C@H](O)[C@@H](O)C[C@@H](O)CC(=O)O[C@H]1C)C[C@H](O)[C@H]2C(=O)O	PBMC		p24 / RT activity	4.5 µM	MDR3761 Primary isolate X4 (SI)	90%
C[C@H]1CN(C(=O)c2ccccc2)CCN1C(=O)C(=O)c1c[nH]c2cc(Cl)c(Cl)cc12	HeLa + HELA CD4+/CCR5		luciferase	10 µM		89%
O=C1[C@@H](Cc2ccccc2)NC(=S)N1c1ccccc1	MT-4		RT activity	10 µg/mL		63%
Nc1ccn([C@H]2CC[C@@H](CO)O2)c(=O)n1	MT-2		RT activity	0.1 µM	LAV	95%
CC1(C)[C@@H](O[C@H]2O[C@H](C(=O)O)[C@@H](O)[C@H](O)[C@H]2O[C@@H]2O[C@H](C(=O)O)[C@@H](O)[C@H](O)[C@H]2O)CC[C@]2(C)[C@H]3C(=O)C=C4[C@@H]5C[C@@](C)(C(=O)O)CC[C@]5(C)CC[C@@]4(C)[C@]3(C)CC[C@@H]12	MOLT-4	9 d	cytopathic effect	1200 µM	IIIB	74.6%
CC(C)[C@H](NC(=O)[C@H](CO)NC(=O)[C@H](CS)NC(=O)CCC(=O)NCCCOCCOCCCN)C(=O)N[C@H](C(=O)N[C@@H](CS)C(=O)NCC(=O)O)[C@@H](C)O	PBMC(PHA STIM.) + PBMC		p24	0.132 µM	IIIB	100%
O=c1oc2cc(O)cc(O)c2c(O)c1-c1coc2c1c(=O)oc1cc(O)cc(O)c12	MT-4		MTT	1 µM	IIIB	60%
CN1C(=O)N(C)C(=O)C2(C1=O)[C@@H](c1ccco1)CC(=O)C[C@H]2[C@H]1COC(C)(C)O1	SupT1		MTT	0.1 µM	NL4-3	>50%
O=C(CCCCCCCCCCC(=O)Nc1cc(S(=O)(=O)O)cc2cc(S(=O)(=O)O)cc(O)c12)Nc1cc(S(=O)(=O)O)cc2cc(S(=O)(=O)O)cc(O)c12	H9		p24	2.5 µg/mL		46%
O=C(O)CCCCCCCCCCCc1ncc[nH]1	CEM		cytopathic effect	10 µg/mL		5%
Cc1cn([C@H]2C[C@H](N=[N+]=[N-])[C@@H](COP(=O)(O)OCCO[C@H]3O[C@H](CO)[C@@H](O)[C@H](O)[C@@H]3O)O2)c(=O)[nH]c1=O	U-937	14 d	RT activity	1 µM	LAV-Bru	0%
CCOc1ccc2nc(NC(=O)NCCc3ccccc3)sc2c1	MT-4		cytopathic effect / XTT	1 µg/mL		0%

Repeating the final 5 entries:

{"SMILES": "CN1C(=O)N(C)C(=O)C2(C1=O)[C@@H](c1ccco1)CC(=O)C[C@H]2[C@H]1COC(C)(C)O1", "cell line": "SupT1", "read by": "MTT", "tested at": "0.1 µM", "strain": "NL4-3", "value": ">50%"}
{"SMILES": "O=C(CCCCCCCCCCC(=O)Nc1cc(S(=O)(=O)O)cc2cc(S(=O)(=O)O)cc(O)c12)Nc1cc(S(=O)(=O)O)cc2cc(S(=O)(=O)O)cc(O)c12", "cell line": "H9", "read by": "p24", "tested at": "2.5 µg/mL", "value": "46%"}
{"SMILES": "O=C(O)CCCCCCCCCCCc1ncc[nH]1", "cell line": "CEM", "read by": "cytopathic effect", "tested at": "10 µg/mL", "value": "5%"}
{"SMILES": "Cc1cn([C@H]2C[C@H](N=[N+]=[N-])[C@@H](COP(=O)(O)OCCO[C@H]3O[C@H](CO)[C@@H](O)[C@H](O)[C@@H]3O)O2)c(=O)[nH]c1=O", "cell line": "U-937", "conditions": "14 d", "read by": "RT activity", "tested at": "1 µM", "strain": "LAV-Bru", "value": "0%"}
{"SMILES": "CCOc1ccc2nc(NC(=O)NCCc3ccccc3)sc2c1", "cell line": "MT-4", "read by": "cytopathic effect / XTT", "tested at": "1 µg/mL", "value": "0%"}